Experimental findings from publication PMC5231390, “Two-Component Signaling System VgrRS Directly Senses Extracytoplasmic and Intracellular Iron to Control Bacterial Adaptation under Iron Depleted Stress” (PLoS Pathogens, 2016) are described below.

The exact form of at least one protein or probe is not confirmed.

In data set [1] the target is VgrR-P (phosphorylated by truncated MBP-VgrS + ATP) (Xanthomonas campestris pv. campestris) (UniProt B0RPP4). Description: MST. Particulars: 10 mM MgCl2, VgrR phosphorylated by truncated VgrS + 100 uM ATP; MST: 50 mM Tris-HCl pH 7.4, 150 mM NaCl, 10 mM MgCl2, 0.05% Tween-20; recombinant protein; protein details: C-terminal His6 (pET30a); label: 5'-FAM on one strand.
The target in data set [2] is VgrR (ColR), unphosphorylated (Xanthomonas campestris pv. campestris) (UniProt B0RPP4). Briefly: EMSA. The following applies: EMSA: 10 mM Tris-HCl pH 7.5, 50 mM KCl, 1 mM DTT, poly(dI-dC), room temp, recombinant protein, protein details: C-terminal His6 (pET30a), label: 32P, probe letters rebuilt from the primers and the genome.
The target in data set [3] is VgrR-P (phosphorylated by truncated MBP-VgrS + ATP) (Xanthomonas campestris pv. campestris) (UniProt B0RPP4). Description: EMSA. Particulars: ATP + MBP-VgrS, stronger than unphosphorylated; EMSA: 10 mM Tris-HCl pH 7.5, 50 mM KCl, 1 mM DTT, poly(dI-dC), room temp; recombinant protein; protein details: C-terminal His6 (pET30a); label: 32P; probe letters rebuilt from the primers and the genome.

“GCCCGATTTCACGTCTTTCTTCTTTTTCATTAACGGGACTTTAATTCCTG (double strand) [PtdvA 50 bp, 5'-FAM (MST)]”: the Kd in data set [1] came to 12.4 nM. “GTACCATGGCTCTCTCTCCAAGTGATCTTGGGTACTGCCAAGGGTTTGTTGGCCCGGCGGGGGATCCGAAGAAGCGGATCCAAAACGTCAGGGTGAACCGATGGTATATGCGTTGCGTCAGGAATTAAAGTCCCGTTAATGAAAAAGAAGAAAGACGTGAAATCGGGCGACGAACGGTCGGCCACAACGTAAAACGCCTGCAGTGC (double strand) [PtdvA 188 bp (XC1241 promoter PCR product)]”: the binding result in data set [2] (unlabeled probe competes) is listed as “binds”. For the sequence “GTACCATGGCTCTCTCTCCAAGTGATCTTGGGTACTGCCAAGGGTTTGTTGGCCCGGCGGGGGATCCGAAGAAGCGGATCCAAAACGTCAGGGTGAACCGATGGTATATGCGTTGCGTCAGGAATTAAAGTCCCGTTAATGAAAAAGAAGAAAGACGTGAAATCGGGCGACGAACGGTCGGCCACAACGTAAAACGCCTGCAGTGC (double strand) [PtdvA EMSA probe (Fig 6D, 8B, 8D)]”, the binding result was “binds” in data set [3] and “binds” in data set [2] (no phosphorylation, similar with MBP-VgrS H186A).
